Source: patent US9061984B2 (University of Louisville Research Foundation, Inc., priority 2008, dated 2015)
Read-outs that look alike come from different tables or passages of the source.

What was measured:
[1] = system: axenic amastigotes of L. amazonensis (strain MHOM/BR/76/LTB-012); details: for SI: IC50, macrophage/IC50, L. amazonensis, Table 7
[2] = system: Trypanosoma cruzi (Tulahuen C4); experiment: In vitro anti-T. cruzi activity (β-galactosidase CPRG colorimetric assay in VERO monolayer); format: cell-based
[3] = system: M. tuberculosis H37Rv; experiment: Conventional aerobic (MABA) culture assay, luminescence MIC; format: cell-based, Mycobacterium tuberculosis; details: VERO vs MABA MIC
[4] = IC50, VERO/IC50, T. cruzi, Table 2
[5] = Selectivity index = IC50, VERO/IC50, T. cruzi, Table 3

C[C@@H]1[C@H](O)[C@@H](C)/C=C/C=C/C=C/C=C/C=C/C=C/C=C/[C@H](O[C@@H]2O[C@H](C)[C@@H](O)[C@H](N)[C@@H]2O)C[C@@H]2O[C@](O)(C[C@@H](O)C[C@@H](O)[C@H](O)CC[C@@H](O)C[C@@H](O)CC(=O)O[C@H]1C)C[C@H](O)[C@H]2C(=O)O [Amphotericin B, reference compound]
SI [1]: 76.0
Selectivity Index ([1]; Table 8b): 43.5

COc1ccc(/C=C/C(=O)c2c(O)cc(O)cc2OC)cc1 [Compound I-05, (E)-1-(2,4-Dihydroxy-6-methoxyphenyl)-3-(4-methoxyphenyl)-2-propen-1-one]
SI [1]: 16.6

COc1cc(O)cc(O)c1C(=O)/C=C/c1ccc2c(c1)OCO2 [Compound I-06, (2E)-3-(1,3-Benzodioxol-5-yl)-1-(2,4-dihydroxy-6-methoxyphenyl)-2-propen-1-one]
SI [1]: 38.3

C=CCOc1cc(OC)c(C(=O)/C=C/c2ccccc2)c(OCC=C)c1 [Compound I-08, (2E)-1-[2-Methoxy-4,6-bis(2-propenyloxy)phenyl]-3-(phenyl)-2-propen-1-one]
SI [1]: 1.6

C=CCOc1cc(OC)c(C(=O)/C=C/c2ccc(OC)cc2)c(OCC=C)c1 [Compound I-10, (2E)-1-[2-Methoxy-4,6-bis(2-propenyloxy)phenyl]-3-(4-methoxyphenyl)-2-propen-1-one]
SI [1]: 3.4

C=CCOc1cc(OC)c(C(=O)/C=C/c2cccc(OC)c2)c(OCC=C)c1 [Compound I-11, (2E)-1-[2-Methoxy-4,6-bis(2-propenyloxy)phenyl]-3-(3-methoxyphenyl)-2-propen-1-one]
SI [1]: 1.5

C=CCOc1cc(OC)c(C(=O)/C=C/c2ccc([N+](=O)[O-])cc2)c(OCC=C)c1 [Compound I-13, (2E)-1-[2-Methoxy-4,6-bis(2-propenyloxy)phenyl]-3-(4-nitrophenyl)-2-propen-1-one]
SI [1]: 1.6

C=CCOc1cc(OC)c(C(=O)/C=C/c2ccc(Cl)cc2)c(OCC=C)c1 [Compound I-14, (2E)-3-(4-Chlorophenyl)-1-[2-methoxy-4,6-bis(2-propenyloxy)phenyl]-2-propen-1-one]
SI [1]: 1.4

C=CCOc1cc(OC)c(C(=O)/C=C/c2ccccc2F)c(OCC=C)c1 [Compound I-15, (2E)-3-(2-Fluorophenyl)-1-[2-methoxy-4,6-bis(2-propenyloxy)phenyl]-2-propen-1-one]
SI [1]: 1.4

C=CCOc1cc(OC)c(C(=O)/C=C/c2ccccc2Br)c(OCC=C)c1 [Compound I-16]
SI [1]: 0.7
SI [2, 4]: 1.01
SI [2, 5]: 1.0

C=CCOc1cc(OC)c(C(=O)/C=C/c2cc(OC)c(OC)c(OC)c2)c(OCC=C)c1 [Compound I-20, (2E)-1-[2-Methoxy-4,6-bis(2-propenyloxy)phenyl]-3-(3,4,5-trimethoxyphenyl)-2-propen-1-one]
SI [1]: 1.5

C=CCOc1cc(OC)c(C(=O)/C=C/c2ccc(F)cc2)c(OCC=C)c1 [Compound I-23, (2E)-3-(4-Fluorophenyl)-1-[2-methoxy-4,6-bis(2-propenyloxy)phenyl]-2-propen-1-one]
SI [1]: 1.5

C=CCOc1cc(OC)c(C(=O)/C=C/c2ccccn2)c(OCC=C)c1 [Compound I-27, (2E)-1-[2-Methoxy-4,6-bis(2-propenyloxy)phenyl]-3-(2-pyridinyl)-2-propen-1-one]
SI [1]: 11.4
SI [2, 4]: 1.49
SI [2, 5]: 1.5

C=CCOc1cc(/C=C/C(=O)c2c(O)cc(O)cc2OC)cc(OCC=C)c1Br [Compound I-42, (2E)-3-(3,5-Bis(2-propenyloxy)-4-bromophenyl)-1-(2,4-dihydroxy-6-methoxyphenyl)-2-propen-1-one]
SI [1]: 10.5

C(=N/Nc1ncnc2sc3c(c12)CCCC3)/c1ccccc1 [II-01]
SI [2, 4]: 7.40

C(=Cc1ccccc1)C=NNc1ncnc2sc3c(c12)CCCC3 [II-04]
Selectivity Index H37Rv [3]: 0.1
Selectivity Index [1]: 0.1
Selectivity Index Lab B [2]: 14.6

Cc1ccc(C=NNc2ncnc3sc4c(c23)CCCC4)cc1 [II-05]
Selectivity Index [1]: 0.5

COc1cc(/C=N\Nc2ncnc3sc4c(c23)CCCC4)cc(OC)c1O [II-16]
SI [2, 4]: 14.19

FC(F)(F)c1ccccc1C=NNc1ncnc2sc3c(c12)CCCC3 [II-25]
Selectivity Index H37Rv [3]: 1.3 (1.3)
Selectivity Index [1]: 2.6
Selectivity Index Lab B [2]: 0.6

Fc1ccc(C=NNc2ncnc3sc4c(c23)CCCC4)cc1 [II-26]
Selectivity Index H37Rv [3]: 0.6
Selectivity Index [1]: 1.0
Selectivity Index Lab B [2]: 1.0

Fc1ccccc1/C=N\Nc1ncnc2sc3c(c12)CCCC3 [II-27]
SI [2, 4]: 1.60

Clc1ccc(/C=N\Nc2ncnc3sc4c(c23)CCCC4)cc1 [II-28]
SI [2, 4]: 4.15

N#Cc1ccc(C=NNc2ncnc3sc4c(c23)CCCC4)cc1 [II-32]
Selectivity Index ([1]; Table 8b): 5.0

CC(C)(C)C=NNc1ncnc2sc3c(c12)CCCC3 [II-36]
Selectivity Index H37Rv [3]: 0.3
Selectivity Index [1]: 1.6

CC(C)=NNc1ncnc2sc3c(c12)CCCC3 [II-44]
Selectivity Index H37Rv [3]: 0.5
Selectivity Index ([1]; Table 8b): 5.9
Selectivity Index Lab B [2]: 2.7

CC1CS(=O)(=O)CCN1/N=C/c1ccc([N+](=O)[O-])o1 (stereo not shown) [Nifurtimox, reference compound]
SI [2]: 154.0

NNc1ncnc2sc3c(c12)CCCC3 [PC]
Selectivity Index H37Rv [3]: 0.3
Selectivity Index ([1]; Table 8b): 0.6
Selectivity Index Lab B [2]: 1.9
